Data as given in PubChem BioAssay AID504761 (Drosophila RNAi Screening Center, 2011)

Aim: 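Fly genes whose silencing reduces dengue virus type 2 infection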 (primary screen)
Cell system: D.Mel-2 cells from Drosophila
Knock-down reagent: long dsRNA against Drosophila genes
Conditions: infection with dengue virus type 2; dose and infection time not stated
Measured: 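Per well on two replicate plates, imaging gave the percent of cells positive for viral envelope protein, ranked by infection, and a nuclear count of cells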
Direction: infection score: higher = more virus-infected cells
Call rule: 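Very low infection ranking in both replicate wells (chance probability at most 0.065), then a retest showing infection dropped 1.5-fold or more at p below 0.05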
Meaning of the calls: active = confirmed: knock-down lowers infection; inactive = not picked or not confirmed
The screen tested about 22,000 reagents; this is a random part of those that have a named target and a result. Over the whole deposit, 116 (0.52%) were called active. 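Calls depend on retest data that are not deposited; infection was ranked per plate without normalising between plates; the unit of the infection score is not given.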 Entries without a mark were called inactive. The numbers tell different reagents against one gene apart. Names joined by + are all predicted targets of the reagent. Further read-outs or replicates are left out here. Not given: the amount of reagent, the time to read-out.

gene knocked down	reagent no.	infection score, replicate 1	infection score, replicate 2
sas	1	4.17	11.1
CG1998	1	1.72	10.5
l(2)34Fc	1		20.6
l(3)neo43	1	5.23	11.8
CG3323	1	2.55	3.57
Sou	1	12.4	14.6
TkR86C	1	1.44	10.4
cyr	1	4.81	26.9
cyr	2	5.35	9.43
Tob	1	6.34	2.81
CG5493 + CG5327	1	2.06	1.45
CtsL4	1	11.9	3.44
pwn	1	2.61	2.49
pwn	2	3.83	3.77
CG4230	1	4.38	3.16
Sc2	1	10.5	29.5
Sc2	2	11.8	6.17
Obp69a	1	1.83	4.25
Obp69a	2	4.03	14.8
sxe2	1	9.38	13.6
CG32081	1	2.02	1.48
CG13579	1	19.3	8.81
CG13579	2	4.93	8.61
